Assay results as given in publication PMC6405875 (Scientific Reports, 2019).

Chains of the proteins cited; added tags and fusions are not shown.
UniProt Q01959, whole entry: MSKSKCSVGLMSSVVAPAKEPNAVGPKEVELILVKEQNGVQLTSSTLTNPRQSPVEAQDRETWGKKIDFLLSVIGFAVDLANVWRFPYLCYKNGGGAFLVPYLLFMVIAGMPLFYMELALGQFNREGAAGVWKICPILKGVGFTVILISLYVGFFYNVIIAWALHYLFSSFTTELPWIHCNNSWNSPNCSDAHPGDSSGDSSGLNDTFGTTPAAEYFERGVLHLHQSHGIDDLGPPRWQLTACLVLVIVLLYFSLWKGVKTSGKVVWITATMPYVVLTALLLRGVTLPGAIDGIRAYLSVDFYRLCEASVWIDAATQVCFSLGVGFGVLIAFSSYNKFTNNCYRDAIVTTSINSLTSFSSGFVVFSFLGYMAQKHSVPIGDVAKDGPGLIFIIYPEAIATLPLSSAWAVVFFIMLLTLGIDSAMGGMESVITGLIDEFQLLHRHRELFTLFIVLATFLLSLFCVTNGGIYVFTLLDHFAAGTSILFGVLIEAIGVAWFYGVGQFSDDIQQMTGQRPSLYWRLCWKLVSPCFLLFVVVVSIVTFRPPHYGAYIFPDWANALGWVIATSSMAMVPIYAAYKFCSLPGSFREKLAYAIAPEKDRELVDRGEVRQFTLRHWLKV
UniProt Q01959, whole entry Y88F/H547A: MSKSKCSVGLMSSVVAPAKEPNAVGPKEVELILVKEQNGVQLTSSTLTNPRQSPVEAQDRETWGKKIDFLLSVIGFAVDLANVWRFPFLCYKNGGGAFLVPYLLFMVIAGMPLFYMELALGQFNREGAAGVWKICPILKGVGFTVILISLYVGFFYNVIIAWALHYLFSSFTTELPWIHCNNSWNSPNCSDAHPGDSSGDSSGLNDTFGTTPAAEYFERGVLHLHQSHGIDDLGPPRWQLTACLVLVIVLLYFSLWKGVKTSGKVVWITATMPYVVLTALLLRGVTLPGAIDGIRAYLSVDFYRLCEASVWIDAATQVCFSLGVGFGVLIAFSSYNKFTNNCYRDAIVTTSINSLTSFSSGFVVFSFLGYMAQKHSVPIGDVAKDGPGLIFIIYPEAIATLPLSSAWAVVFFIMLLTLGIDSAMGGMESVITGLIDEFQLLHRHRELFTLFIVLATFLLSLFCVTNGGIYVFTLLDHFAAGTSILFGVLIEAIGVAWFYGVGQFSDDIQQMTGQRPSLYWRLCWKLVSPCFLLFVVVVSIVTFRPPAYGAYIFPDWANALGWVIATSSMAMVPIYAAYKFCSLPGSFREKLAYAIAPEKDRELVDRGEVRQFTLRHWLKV
UniProt Q01959, whole entry Y88F/K92M/H547A: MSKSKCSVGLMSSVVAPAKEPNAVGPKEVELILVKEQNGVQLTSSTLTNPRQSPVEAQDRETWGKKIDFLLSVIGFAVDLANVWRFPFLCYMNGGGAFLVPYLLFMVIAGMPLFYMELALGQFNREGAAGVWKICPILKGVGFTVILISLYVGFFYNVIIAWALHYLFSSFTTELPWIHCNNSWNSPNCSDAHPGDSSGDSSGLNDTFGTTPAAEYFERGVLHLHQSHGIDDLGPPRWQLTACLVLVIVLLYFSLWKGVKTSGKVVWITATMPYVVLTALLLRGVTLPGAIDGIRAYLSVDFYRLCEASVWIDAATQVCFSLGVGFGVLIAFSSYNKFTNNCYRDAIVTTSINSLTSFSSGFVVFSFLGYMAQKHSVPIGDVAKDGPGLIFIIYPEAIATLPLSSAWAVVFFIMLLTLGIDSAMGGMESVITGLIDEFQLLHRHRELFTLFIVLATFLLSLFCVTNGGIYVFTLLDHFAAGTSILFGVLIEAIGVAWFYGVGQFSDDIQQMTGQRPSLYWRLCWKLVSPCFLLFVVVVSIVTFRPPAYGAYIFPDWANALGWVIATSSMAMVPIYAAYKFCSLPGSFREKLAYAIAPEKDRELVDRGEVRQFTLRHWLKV

Tests used:
[1] = target: T1, WT hDAT (Homo sapiens, UniProt Q01959); assay: [3H]WIN 35,428 binding in intact PC12 cells transfected with WT hDAT
T1 construct: expressed in transfected cells; host or cells: rat PC12 cells (ATCC CRL-1721), pcDNA3.1+

[2] = target: T2, hDAT Y88F/H547A (Homo sapiens, UniProt Q01959, H547A/Y88F); assay: [3H]WIN 35,428 binding in intact PC12 cells transfected with Y88F/H547A hDAT
T2 construct: expressed in transfected cells; host or cells: rat PC12 cells (ATCC CRL-1721), pcDNA3.1+

[3] = target: hDAT Y88F/K92M/H547A (Homo sapiens, UniProt Q01959, H547A/K92M/Y88F); assay: [3H]WIN 35,428 binding in intact PC12 cells transfected with Y88F/K92M/H547A hDAT; design: expressed in transfected cells; host or cells: rat PC12 cells (ATCC CRL-1721), pcDNA3.1+

Question: With “2beta-carbomethoxy-3-beta-(4-fluorophenyl)tropane [[^3H]WIN 35,428]” as the substance, how does the “Bmax of [3H]WIN 35,428 binding” value [1] read?
Answer: Its value is 5.02 ± 0.71 pmol/10^5 cells.

Question: What about the Kd [1] of the same substance?
Answer: The Kd was 9.27 ± 1.32 nM.

Question: And the “Bmax of [3H]WIN 35,428 binding” value [2]?
Answer: The value was 3.16 ± 0.78 pmol/10^5 cells.

Question: What about the Kd [2] of the same substance?
Answer: The Kd was 7.1 ± 0.74 nM.

Question: And the “Bmax of [3H]WIN 35,428 binding” value [3]?
Answer: The value was 1.96 ± 0.39 pmol/10^5 cells.

Question: What about the Kd [3] of the same substance?
Answer: Its Kd is 27.7 ± 6.5 nM.
